Experimental data: patent publication US10500274B2, “Methods for reducing viral load in HIV-1 infected patients” (CytoDyn Inc., priority 2008, dated 2019)

Test system: HIV-1JR-FL envelope-mediated membrane fusion

`COC[C@@H](c1ccc(C(F)(F)F)cc1)N1CCN(C2(C)CCN(C(=O)c3c(C)ncnc3C)CC2)C[C@@H]1C` [SCH-D, 1-[(4,6-dimethyl-5-pyrimidinyl)carbonyl]-4-[4-[2-methoxy-1(R)-4-(trifluoromethyl)phenyl]ethyl-3(S)-methyl-1-piperazinyl]-4-methylpiperidine] was tested, and the IC50 was 6.1 nM.
